Measurements reported in US6518317B1, “Antiviral agents” (priority 1997, dated 2003).
Like-named read-outs stand apart in the source and are kept apart here.

How the values were obtained:
[1] = test system: influenza virus A/PR/8/34 strain
[2] = test system: influenza virus A/PR/8/34 strain; remark: listed apart in the source
[3] = test system: Japanese encephalitis virus (JEV Ja0Ar-363-70 strain); test: Japanese encephalitis virus titer in Vero cells, cyclopentenone after infection
[4] = test system: influenza virus A/PR/8/34 strain; remark: listed apart in the source
[5] = test system: influenza virus A/PR/8/34 strain; remark: listed apart in the source
[6] = test system: influenza virus A/PR/8/34 strain; remark: listed apart in the source
[7] = test system: adenovirus type 5 (Adenoid 75; ATCC VR-5); test: Adenovirus hexon protein in HeLa cells, cyclopentenone before and after infection; format: cell-based; details: 20 μM or less
[8] = test system: adenovirus of type 5 (Adenoid 75; ATCC VR-5); test: Adenovirus hexon protein in HeLa cells, cyclopentenone added after infection; format: cell-based; details: 20 μM or more
[9] = test system: influenza virus A/PR/8/34 strain; remark: listed apart in the source

## O=C1C=CC(O)C1O (stereo not drawn) [cyclopentenone, 4,5-dihydroxy-2-cyclopenten-1-one]
[1]; 5 μM, day 2 after infection, before infection, m.o.i. 0.001
  titer of the virus: 5.2 × 10^5 pfu/ml
[1]; 5 μM, day 3 after infection, before infection, m.o.i. 0.001
  titer of the virus: 4.0 × 10^4 pfu/ml
[1]; 10 μM or more, before infection, m.o.i. 0.001
  titer of the virus compared with the control: apparently lowered
[1]; 10 μM, day 0 after infection, before infection, m.o.i. 0.001
  titer of the virus: <1.0 × 10^2 pfu/ml
[1]; 10 μM, day 1 after infection, before infection, m.o.i. 0.001
  titer of the virus: <1.0 × 10^2 pfu/ml
[1]; 10 μM, day 2 after infection, before infection, m.o.i. 0.001
  titer of the virus: 6.2 × 10^5 pfu/ml
[1]; 10 μM, day 3 after infection, before infection, m.o.i. 0.001
  titer of the virus: 8.6 × 10^4 pfu/ml
[1]; 20 μM, day 0 after infection, before infection, m.o.i. 0.001
  titer of the virus: <1.0 × 10^2 pfu/ml
[1]; 20 μM, day 1 after infection, before infection, m.o.i. 0.001
  titer of the virus: <1.0 × 10^2 pfu/ml
[1]; 20 μM, day 2 after infection, before infection, m.o.i. 0.001
  titer of the virus: 5.0 × 10^5 pfu/ml
[1]; 20 μM, day 3 after infection, before infection, m.o.i. 0.001
  titer of the virus: 1.1 × 10^5 pfu/ml
[1]; 40 μM, day 0 after infection, before infection, m.o.i. 0.001
  titer of the virus: <1.0 × 10^2 pfu/ml
[1]; 40 μM, day 1 after infection, before infection, m.o.i. 0.001
  titer of the virus: <1.0 × 10^2 pfu/ml
[1]; 40 μM, day 2 after infection, before infection, m.o.i. 0.001
  titer of the virus: 4.4 × 10^3 pfu/ml
[1]; 40 μM, day 3 after infection, before infection, m.o.i. 0.001
  titer of the virus: 8.0 × 10^3 pfu/ml
[1]; […]
  state of the MDCK cells: not eliminated but adhered
[2]; 20 μM or more, before and after infection, m.o.i. 0.01
  titer of the virus compared with the control: apparently lowered
[2]; 20 μM, day 0 after infection, before and after infection, m.o.i. 0.01
  titer of the virus: <1.0 × 10^2 pfu/ml
[2]; 20 μM, day 1 after infection, before and after infection, m.o.i. 0.01
  titer of the virus: 9.8 × 10^4 pfu/ml
[2]; 20 μM, day 2 after infection, before and after infection, m.o.i. 0.01
  titer of the virus: 1.6 × 10^5 pfu/ml
[2]; 20 μM, day 3 after infection, before and after infection, m.o.i. 0.01
  titer of the virus: 1.3 × 10^5 pfu/ml
[2]; 40 μM, day 0 after infection, before and after infection, m.o.i. 0.01
  titer of the virus: <1.0 × 10^2 pfu/ml
[2]; 40 μM, day 1 after infection, before and after infection, m.o.i. 0.01
  titer of the virus: <1.0 × 10^2 pfu/ml
[2]; 40 μM, day 2 after infection, before and after infection, m.o.i. 0.01
  titer of the virus: <1.0 × 10^2 pfu/ml
[2]; 40 μM, day 3 after infection, before and after infection, m.o.i. 0.01
  titer of the virus: <1.0 × 10^2 pfu/ml
[2]; […]
  state of the MDCK cells: not eliminated but adhered
[3]; 10 μM or more, added after infection
  numbers of the focus compared with the control: apparently decreased
[3]; 10 μM, 1 day after inoculation of virus, added after infection
  titer of the virus: 6.0 × 10^3 pfu/ml
[3]; 10 μM, 2 days after inoculation of virus, added after infection
  titer of the virus: 2.4 × 10^6 pfu/ml
[3]; 10 μM, 3 days after inoculation of virus, added after infection
  titer of the virus: 4.4 × 10^6 pfu/ml
[3]; 20 μM, 1 day after inoculation of virus, added after infection
  titer of the virus: 6.4 × 10^3 pfu/ml
[3]; 20 μM, 2 days after inoculation of virus, added after infection
  titer of the virus: 1.9 × 10^6 pfu/ml
[3]; 20 μM, 3 days after inoculation of virus, added after infection
  titer of the virus: 3.0 × 10^6 pfu/ml
[3]; 40 μM, 1 day after inoculation of virus, added after infection
  titer of the virus: 0 pfu/ml
[3]; 40 μM, 2 days after inoculation of virus, added after infection
  titer of the virus: 0 pfu/ml
[3]; 40 μM, 3 days after inoculation of virus, added after infection
  titer of the virus: 0 pfu/ml
[3]; […]
  state of the Vero cells: not eliminated but adhered
[4]; 5 μM, day 2 after infection, after infection, m.o.i. 0.001
  titer of the virus: 8.8 × 10^4 pfu/ml
[4]; 5 μM, day 3 after infection, after infection, m.o.i. 0.001
  titer of the virus: 2.6 × 10^4 pfu/ml
[4]; 10 μM or more, after infection, m.o.i. 0.001
  titer of the virus compared with the control: apparently lowered
[4]; 10 μM, day 0 after infection, after infection, m.o.i. 0.001
  titer of the virus: <1.0 × 10^2 pfu/ml
[4]; 10 μM, day 1 after infection, after infection, m.o.i. 0.001
  titer of the virus: <1.0 × 10^2 pfu/ml
[4]; 10 μM, day 2 after infection, after infection, m.o.i. 0.001
  titer of the virus: 2.0 × 10^5 pfu/ml
[4]; 10 μM, day 3 after infection, after infection, m.o.i. 0.001
  titer of the virus: 1.8 × 10^4 pfu/ml
[4]; 20 μM, day 0 after infection, after infection, m.o.i. 0.001
  titer of the virus: <1.0 × 10^2 pfu/ml
[4]; 20 μM, day 1 after infection, after infection, m.o.i. 0.001
  titer of the virus: <1.0 × 10^2 pfu/ml
[4]; 20 μM, day 2 after infection, after infection, m.o.i. 0.001
  titer of the virus: 1.8 × 10^4 pfu/ml
[4]; 20 μM, day 3 after infection, after infection, m.o.i. 0.001
  titer of the virus: 1.2 × 10^4 pfu/ml
[4]; 40 μM, day 0 after infection, after infection, m.o.i. 0.001
  titer of the virus: <1.0 × 10^2 pfu/ml
[4]; 40 μM, day 1 after infection, after infection, m.o.i. 0.001
  titer of the virus: <1.0 × 10^2 pfu/ml
[4]; 40 μM, day 2 after infection, after infection, m.o.i. 0.001
  titer of the virus: <1.0 × 10^2 pfu/ml
[4]; 40 μM, day 3 after infection, after infection, m.o.i. 0.001
  titer of the virus: <1.0 × 10^2 pfu/ml
[4]; […]
  state of the MDCK cells: not eliminated but adhered
[5]; 5 μM, day 1 after infection, after infection, m.o.i. 0.01
  titer of the virus: 2.4 × 10^5 pfu/ml
[5]; 5 μM, day 2 after infection, after infection, m.o.i. 0.01
  titer of the virus: 1.5 × 10^6 pfu/ml
[5]; 5 μM, day 3 after infection, after infection, m.o.i. 0.01
  titer of the virus: 1.9 × 10^5 pfu/ml
[5]; 10 μM or more, after infection, m.o.i. 0.01
  titer of the virus compared with the control: apparently lowered
[5]; 10 μM, day 0 after infection, after infection, m.o.i. 0.01
  titer of the virus: <1.0 × 10^2 pfu/ml
[5]; 10 μM, day 1 after infection, after infection, m.o.i. 0.01
  titer of the virus: 1.9 × 10^5 pfu/ml
[5]; 10 μM, day 2 after infection, after infection, m.o.i. 0.01
  titer of the virus: 3.4 × 10^5 pfu/ml
[5]; 10 μM, day 3 after infection, after infection, m.o.i. 0.01
  titer of the virus: 1.7 × 10^5 pfu/ml
[5]; 20 μM, day 0 after infection, after infection, m.o.i. 0.01
  titer of the virus: <1.0 × 10^2 pfu/ml
[5]; 20 μM, day 1 after infection, after infection, m.o.i. 0.01
  titer of the virus: 1.2 × 10^5 pfu/ml
[5]; 20 μM, day 2 after infection, after infection, m.o.i. 0.01
  titer of the virus: 1.0 × 10^6 pfu/ml
[5]; 20 μM, day 3 after infection, after infection, m.o.i. 0.01
  titer of the virus: 7.2 × 10^5 pfu/ml
[5]; 40 μM, day 0 after infection, after infection, m.o.i. 0.01
  titer of the virus: <1.0 × 10^2 pfu/ml
[5]; 40 μM, day 1 after infection, after infection, m.o.i. 0.01
  titer of the virus: <1.0 × 10^2 pfu/ml
[5]; 40 μM, day 2 after infection, after infection, m.o.i. 0.01
  titer of the virus: <1.0 × 10^2 pfu/ml
[5]; 40 μM, day 3 after infection, after infection, m.o.i. 0.01
  titer of the virus: <1.0 × 10^2 pfu/ml
[5]; […]
  state of the MDCK cells: not eliminated but adhered
[6]; 5 μM, day 2 after infection, before and after infection, m.o.i. 001
  titer of the virus: 4.4 × 10^5 pfu/ml
[6]; 5 μM, day 3 after infection, before and after infection, m.o.i. 001
  titer of the virus: 5.6 × 10^4 pfu/ml
[6]; 10 μM or more, before and after infection, m.o.i. 001
  titer of the virus compared with the control: apparently lowered
[6]; 10 μM, day 0 after infection, before and after infection, m.o.i. 001
  titer of the virus: <1.0 × 10^2 pfu/ml
[6]; 10 μM, day 1 after infection, before and after infection, m.o.i. 001
  titer of the virus: <1.0 × 10^2 pfu/ml
[6]; 10 μM, day 2 after infection, before and after infection, m.o.i. 001
  titer of the virus: 4.8 × 10^5 pfu/ml
[6]; 10 μM, day 3 after infection, before and after infection, m.o.i. 001
  titer of the virus: 2.8 × 10^4 pfu/ml
[6]; 20 μM, day 0 after infection, before and after infection, m.o.i. 001
  titer of the virus: <1.0 × 10^2 pfu/ml
[6]; 20 μM, day 1 after infection, before and after infection, m.o.i. 001
  titer of the virus: <1.0 × 10^2 pfu/ml
[6]; 20 μM, day 2 after infection, before and after infection, m.o.i. 001
  titer of the virus: 3.2 × 10^4 pfu/ml
[6]; 20 μM, day 3 after infection, before and after infection, m.o.i. 001
  titer of the virus: 2.8 × 10^4 pfu/ml
[6]; 40 μM, day 0 after infection, before and after infection, m.o.i. 001
  titer of the virus: <1.0 × 10^2 pfu/ml
[6]; 40 μM, day 1 after infection, before and after infection, m.o.i. 001
  titer of the virus: <1.0 × 10^2 pfu/ml
[6]; 40 μM, day 2 after infection, before and after infection, m.o.i. 001
  titer of the virus: <1.0 × 10^2 pfu/ml
[6]; 40 μM, day 3 after infection, before and after infection, m.o.i. 001
  titer of the virus: <1.0 × 10^2 pfu/ml
[6]; […]
  state of the MDCK cells: not eliminated but adhered
[7]
  growth of the cells: as same as in the section to which none of the cyclopentenone was added
[8]
  growth of the cells: as same as that in the sections to which none of the cyclopentenone was added
[9]; 5 μM, day 1 after infection, before infection, m.o.i. 0.01
  titer of the virus: 4.0 × 10^5 pfu/ml
[9]; 5 μM, day 2 after infection, before infection, m.o.i. 0.01
  titer of the virus: 8.0 × 10^5 pfu/ml
[9]; 5 μM, day 3 after infection, before infection, m.o.i. 0.01
  titer of the virus: 9.6 × 10^4 pfu/ml
[9]; 10 μM or more, before infection, m.o.i. 0.01
  titer of the virus compared with the control: apparently lowered
[9]; 10 μM, day 0 after infection, before infection, m.o.i. 0.01
  titer of the virus: <1.0 × 10^2 pfu/ml
[9]; 10 μM, day 1 after infection, before infection, m.o.i. 0.01
  titer of the virus: 2.0 × 10^5 pfu/ml
[9]; 10 μM, day 2 after infection, before infection, m.o.i. 0.01
  titer of the virus: 7.2 × 10^5 pfu/ml
[9]; 10 μM, day 3 after infection, before infection, m.o.i. 0.01
  titer of the virus: 2.4 × 10^5 pfu/ml
[9]; 20 μM, day 0 after infection, before infection, m.o.i. 0.01
  titer of the virus: <1.0 × 10^2 pfu/ml
[9]; 20 μM, day 1 after infection, before infection, m.o.i. 0.01
  titer of the virus: 2.2 × 10^3 pfu/ml
[9]; 20 μM, day 2 after infection, before infection, m.o.i. 0.01
  titer of the virus: 2.6 × 10^5 pfu/ml
[9]; 20 μM, day 3 after infection, before infection, m.o.i. 0.01
  titer of the virus: 3.8 × 10^5 pfu/ml
[9]; 40 μM, day 0 after infection, before infection, m.o.i. 0.01
  titer of the virus: <1.0 × 10^2 pfu/ml
[9]; 40 μM, day 1 after infection, before infection, m.o.i. 0.01
  titer of the virus: 4.0 × 10^2 pfu/ml
[9]; 40 μM, day 2 after infection, before infection, m.o.i. 0.01
  titer of the virus: 1.9 × 10^5 pfu/ml
[9]; 40 μM, day 3 after infection, before infection, m.o.i. 0.01
  titer of the virus: 5.6 × 10^5 pfu/ml
[9]; […]
  state of the MDCK cells: not eliminated but adhered
